Assay results published in paper PMC12390173, “A Novel Anti-BoNT/A Neutralizing Antibody Possessed Overlapped Epitope with SV2 and Had Prolonged Half-Life In Vivo” (2025).

Molecular target: SV2C (cell surface receptor of botulinum) (UniProt Q496J9)

Which results are given for “BoNT/AHC (C-terminus of the BoNT/A heavy chain) (from UniProt P0DPI0)”?
Kd: 54.3 nM; koff: 0.014 s⁻¹; kon: 258000 M⁻¹ s⁻¹
